Laboratory results reported in patent US12109253B2, “Use of IGFBP7 for treating malaria” (AGENCY FOR SCIENCE, TECHNOLOGY AND RESEARCH, priority 2019, dated 2024).

Assay: Plasma IGFBP7 levels, Malawian clinical study
Set-up: species or system human

In the case of “insulin-like growth factor binding protein 7 [IGFBP7]”, the “plasma IGFBP7 levels (mean)” value (17 paediatric uncomplicated falciparum malaria patients) is reported as 100.5 ± 17.88 ng/mL, the “plasma IGFBP7 levels (mean)” value (paediatric cerebral malaria patients) is reported as 53.29 ± 18.38 ng/mL and the “plasma IGFBP7 levels (mean)” value (uninfected controls) is reported as 54.59 ± 16.80 ng/mL.
